Measured values published in paper PMC6154617.
Tags and fusion partners may be left off the protein sequences shown. Construct, isoform or probe ends are uncertain for at least one entry.

Target: T1, rRex (SsRex) (Streptococcus suis serotype 2 strain SS2-1) (UniProt A0A0H3MUY0)
T1 sequence (looked up): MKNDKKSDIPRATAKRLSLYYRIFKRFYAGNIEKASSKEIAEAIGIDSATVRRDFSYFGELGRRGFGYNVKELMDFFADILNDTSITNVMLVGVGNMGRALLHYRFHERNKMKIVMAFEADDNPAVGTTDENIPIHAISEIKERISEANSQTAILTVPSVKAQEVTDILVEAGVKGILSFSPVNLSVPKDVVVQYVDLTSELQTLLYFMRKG
Assay: EMSA
Settings: 20 mM Tris pH 8.0, 1 mM EDTA, 75 mM KCl, 2 mM DTT, 10% glycerol, 20 min at 30 C (plus 15 min with NAD+/NADH), 6% PAGE in 0.5x TBE, ethidium bromide, recombinant protein, residues 1-212, protein details: His tag (pET-28a, HisTrap), probe letters rebuilt from the primers and the genome

| Sequence | binding result | binding result (no added NAD(H)) | further results |
| --- | --- | --- | --- |
| GACTTACCTCCACACGCCACTAAAAACAAAACAGCAAGTAGACTCATTAATAAGCCTAACCAAGCTTTCTTTTTCATATAAACCTCCAATTTTTATCTGGTATTAGTATTATACAAGATTGTGAAATGTTTTTCAATTTGTTTTGAAATATTTTCACAAACATGAACAAAAAAATGTATGATATCCGCTTCATACATTCTTAAAACTATTTACTGCCCTTGAAGAGCTAAAAAATTCTCTATTTCGGATAGCGTTGCTTGGCTCCCTTTACGGAGTATTCCAGATAATTTACCTGATTTATAGTAGGTTAAGCTAGGAACCGTAGCAAGACCTTGACTCTGTCGAAATTGTTGTATTTTTCCATTCGGATCCGACTCGCTATCTAAATAGTAGATCGTCGCATGTGATTGCTCTACTGCCTCTGTTAATTTCGGAACAAAATCACGACAATAAGGGCATGTCTCACGACCTATGTATAATATAAATTCTTCCTCGTCTTGGACCTTTTGCTCCACTTCGTCTATC (double strand) [PfrdA] | binds | – | – |
| CAATTTTCTTTCGGGGAAAACAACTTTTTAACCACCCATGGGTTCCCCCCAAATATATTTGCAAACAATTTGTTAACTTTTCCCCAAGGTAATCCAACAATTTTTAATTTAATTGGAAAAAAAAAATGGTAAATTTTTCCAAATTTTTCCGGTTTGGTTTGGAAAAGCCCTTACTTTTTCCTGTTTTCAGAAAACGTTCAGATTTGTTTCTGCTTTGTTTGGTCGAAAAATACATAAAGTAAGACAAATCTTTATCATTTATTCTTTCTCTAACATTTACGATACTAGTTTATCAAGAAAACGCTTCCATGTAAATAGATTTTTTTGAAAATTTTGTAGTAATTACGTGATAATTTTCAATTTTATATTCATTTGTCCCTCCTTTTCTACTCTTGCATTTTTGTTCACATTGTGATATTCTTAACAATATAAAACAACTATATTAACACATCCAAAAATGTACATAAAATATTAAAACAGGAGGTCTGCTTATGAAAGCAG (double strand) [PadhE] | binds | – | – |
| GTACGCTTTCCTGCCTCTCATTTCCTCTTTACATCCATAGTTTAACAGAGCAAAAAAACAAAAACTTGAAAACGCTCACATTTATTTTGAGAAATTCTTCACATTTTTAACCTTATTTATAAATAATTATCGATTATATCATCTAAATTCTGCATAATTCTTTCCGTTATATCATTATATGAATTTTTATTTTTTTATAAAAAACAGAAACTTCAATGAGTTTCTGTCAAATTTTCTAAGAAATAATCAATATCTAAATAAGTTAACTGTTTATGGCTATAAGCTATTTTACCATCCTGCTTCAGTTGCTTCAAAACATGGCTAACCGTTTCCCGTGTCGTAGCTGCTAAACGCGAAATCTCTTGAATATGAATTTCAAATGGCAAGGTAGCAAACTGCTCTCGCTGGCACATATCCCAATAAAGAAGAGCCAAG (double strand) [ParcA] | – | binds | – |
| AGCCATAGGGCTACGACAAATATTTCCAAGACAGACAAAAACGATTTTTTTCATAGATACTCCTTTCGTGACATAAGAAAAGAGAAGGTAGACTCGACAGGTAAATGTCTGAGTTCCCCTCTCTTGCATATTTTTGTTCGGGCTATAGGTAAAAGACCAAATTAAGTGTAATGTTCATTATCAAACAGTGCACGACCAATCCTACCTATATTGAACTCTTTGTTTATTTCTCTTCTTTGTCGAAAGCATTTTTGATGCCGTTAATGGCACCTTCAAGCCCATCTTTTGCATCTTCGACTAGCTCTTTTGCTTTGCCAATTCCTTTCTCAACAAGTCCTTCAACTTCGATTTCCTTGTCGCCGGTCAGCTTACCAATTACCTCTTTTGCAGATCCAGATAGCTGTTCTAGTTTTGCGTCAAATTTTTCTTCTGACATAAAATCCCTCCTCGATATACACATATGGGGGCGATGATTTTCTAAAAAGAAAATCACATACTATTCTTACTTACTAGTCTAACGTATATAAGTTAATATAGCAAGGAATTTGTCTGCCAATAATTCAGAGGAGGAGGGATAATTCTTGCAATTTTTTCTTCTTTTATTTATAATTATTATAAATAAAAGAAAGGGTGATATATGATGAAACAAAAATATTATCAATCTCCAGCAGAAATTGCGTCTTTCAGCCCGCGTCCATCACTGGCTGATTCTAAGGCTGTTTTGAATCAAG (double strand) [Pdpr] | binds | – | – |
| TGTTCTGTCGGTAGGGAGCTTTCTGCCGGATAAACATTTGTCCGTATTTTTTCTTTTAAGTCATTATAAATTTCTTGGTATTTTTTCATCATTTCCTCGCAAATTCATCTGTCAAATAACATACAACTATCAACATTATAACAAAATTCATTTCAAAATTAAAAAAAACTAAGCAAAAACGCTTGCATTATTTTTTGAAATCGGATACAATGATAACACAAAAGAAATTTGTCCGTACAAATTTCAAAAAAGGACATGCTTCGAGAGATGTCTAAAAAATATAGGGTGACGGATTCCATAAGCCGTCTAGAAGGAAAAATATATGGGAAAATTTGAAAAAGAAGCCAAACAGCTCCTAGAAGCTATTGGCGGAAAAGAGAATGTCAATGCAGTAACACACTGTGCAACGCGCATGCGCTTTGTTCTTGCAGATGAGAAAAAAGCAAACGTAAAAGTCATCGAAGACATTCCAGCAGTAAAAGGAACATTTACCAACGCTGGTCAATTCCAAGTCATCATCGGTAACGATGTACCAATCTTCTACAATGACTTTACAGCTGTGTCTGGTATCGAAGGCGTATCAAAAGA (double strand) [PtreR] | binds | – | – |
| CCGTCACCGACAAGGATTACTTTTTTGTGTTGTTTAGTTGCAGTCATTGCTAAACATCTCCTTAGTTTTATTTGGGGATGACTTCATCCCAACCATAATACATTCTAGCATGTTTTAAGCTTTTTGTCACTTGTGAAAGCGCCTTTGAAAATGTTTACATGCTAGTTTCCAACAAAGAAATTTATTCGCCAATATGGTATAATAGAAGCACAATGACTGTTGAAAGAGGCATATAATGCAAGATAAAAATTTAGTAACGGTTAATCTGACCAATGAGATGAAATCATCCTTCATCGACTATGCGATGAGTGTTATCGTTTCACGTGCTCTGCCTGATGTACGTGATGGTCTGAAGCCGGTTCATCGCCGTATTTTGTATGGGATGAATGAATTAGGGATTACACCGGATAAACCACATAAAAAATCAGCCCGTATCACAGGGGATGTTATGGGTAAATATCACCCGCATGGAGATAGTGCGA (double strand) [Pldh] | – | binds | binding result (50 mM NAD+, 50 ng rRex, better than ParcA): binds |
| CACTTTAGACTCCTTTATTTCGATAGAATACGCTTTATCGATTATTTATATATTAAACAGTTCTTTATTCTATTCTAGTCCAAGTTTGTGAAAAAATCAACAGATTGATTTTAAAAAAAGATTAAACAGGAAACTGTCTAATCTAGTGTTTGTAAATAGCGATAGAGATCTCCGATTGTCCCTTTGTAATCCAGAGCTTGTCCGTTTTGTGTAATGCTGGTAACTGGATAATAGTCTGGGAGGGTTAAGCAACCGGAAAAAGCCAGAATGGCTGCATCCTTATTCTCAAATGTTTGGATACGTTCTTGCTTGTAAGCGTCAAGATAGTGAATT (double strand) [Prex] | – | binds | binding result (10 mM NAD+, 50 ng rRex): binds; binding result (10 mM NADH, 50 ng rRex): binds |
